Results from patent publication US7022734B2, “Treatment of septic shock” (dated 2006).

Tested on: endotoxin-induced fulminate septic shock
Assay: C. parvum/LPS-induced septic shock in mice (Mouse Acute Septic-Shock model), survival
Settings: male CD-1 mice, 2 hours before and at the time of endotoxin injection
[1] = route IV, dose 10 mg/kg, 10 mg/kg

| Substance | % Survival at 48 hrs (route IP, dose 1 mg/kg) [%] | Survivors/Total at 48 hrs (route IP, dose 1 mg/kg) | % Survival at 48 hrs (route IP, dose 10 mg/kg) [%] | Survivors/Total at 48 hrs (route IP, dose 10 mg/kg) | % Survival at 48 hrs (route IV, dose 1 mg/kg) [%] | Survivors/Total at 48 hrs (route IV, dose 1 mg/kg) | % Survival at 48 hrs (route IV, dose 10 mg/kg) [%] | Survivors/Total at 48 hrs (route IV, dose 10 mg/kg) | also measured |
| --- | --- | --- | --- | --- | --- | --- | --- | --- | --- |
| Ethyl α-acetyl-4-(methoxycarbonyl)benzoylacerate, copper(II) | 62.5 | 5/8 | 37.5 | 3/8 | – | – | – | – | – |
| Iron(III)citrate | – | – | – | – | 62.5 | 5/8 | 50 | 4/8 | – |
| Tris(ethylenediamine)nickel(II) sulphate | – | – | – | – | – | – | – | – | % Survival at 48 hrs [1]: 62.5% and 75%; Survivors/Total at 48 hrs [1]: 5/8 and 6/8 |
| Hexaaminenickel(II)chloride | 50 | 4/8 | 50 | 4/8 | – | – | – | – | – |
| Ferric pyridoxal isonicanoyl hydrazone | – | – | 75 | 6/8 | – | – | – | – | – |
| Tris(acetylacetonate manganese: III) | 62.5 | 5/8 | 37.5 | 3/8 | – | – | – | – | – |
| 1,1′-ferrocenedimethanol | 62.5 | 5/8 | 75 | 6/8 | – | – | – | – | – |
| Diethylenetriaminepentaacetic acid iron(III) | – | – | – | – | 100 | 8/8 | 50 | 4/8 | – |
| Ferrioxamine B | – | – | – | – | – | – | – | – | % Survival at 48 hrs (route IV, dose 5 mg/kg): 87.5%; Survivors/Total at 48 hrs (route IV, dose 5 mg/kg): 7/8 |
| Ferrous gluconate | – | – | – | – | 37.5 | 3/8 | 75 | 6/8 | – |
| Bathopheneanthroline disulphonic acid | – | – | – | – | 87.5 | 7/8 | 25 | 2/8 | – |

Where “and” joins values, the source holds several entries; their conditions need not be identical. Equal entries are not always repeated.
